Data from publication PMC12859517, “Oligomerization is required for channel formation of MctB and for copper resistance of Mycobacterium tuberculosis” (The Journal of Biological Chemistry, 2025).

Target: the molecule itself
Experiment: crystal structure

B1: _(His6-ΔN26)MctBtb: recombinant MctB (Rv1698) of M. tuberculosis lacking its 26 N-terminal amino acids, with an N-terminal hexa-histidine tag (domain or fragment)
chain: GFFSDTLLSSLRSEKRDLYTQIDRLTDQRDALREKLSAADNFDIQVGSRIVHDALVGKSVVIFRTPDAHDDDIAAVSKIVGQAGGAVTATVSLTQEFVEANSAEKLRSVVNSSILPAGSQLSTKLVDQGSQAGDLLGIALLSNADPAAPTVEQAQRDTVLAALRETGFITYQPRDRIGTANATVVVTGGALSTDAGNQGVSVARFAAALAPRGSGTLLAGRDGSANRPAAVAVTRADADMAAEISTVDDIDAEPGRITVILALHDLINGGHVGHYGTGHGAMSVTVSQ
notes: not shown: His6, N-terminal, kept
stoichiometry N: 2
